Publication PMC5719368, “Allosteric pyruvate kinase-based “logic gate” synergistically senses energy and sugar levels in Mycobacterium tuberculosis” (Nature Communications, 2017)

How the values were obtained:
C=C(OP(=O)(O)O)C(=O)O = assay: purified protein; conditions: pH 7.2; 25.0 °C
[1] = tested on: Nc1ncnc2c1ncn2[C@@H]1O[C@H](COP(=O)(O)OP(=O)(O)O)[C@@H](O)[C@H]1O; assay: purified protein; conditions: pH 7.2; 25.0 °C

“MtbPYK (Mycobacterium tuberculosis H37Rv)” gave a K0.5 (C=C(OP(=O)(O)O)C(=O)O) of 0.41 ± 0.01 mM, a kcat/Km (C=C(OP(=O)(O)O)C(=O)O) of 446000 M⁻¹ s⁻¹ and a Km [1] of 470 ± 20 µM.
